PubChem BioAssay AID624099, ICCB-Longwood, 2012

Purpose: 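Host factors E2 relies on to silence an HPV18 LCR reporter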 (primary screen)
Cell system: human C33A cervical carcinoma cells (HPV-negative) stably expressing BPV1 E2 and an HPV18 LCR luciferase reporter
Reagent: siRNA pool against human genes, 40 nM
Timing: 72 h
Read-out: 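HPV18 LCR reporter light per well, converted to plate-wise z-scores that exclude control wells, and averaged over triplicate plates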
Direction: mean z-score and z-score: higher = stronger reporter signal, weaker E2 silencing
Rule for the call: 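Hit if mean z-score reaches 2 and two or more of three replicate z-scores also reach 2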
The whole screen tested about 21,000 reagents; this is a part drawn at random. 497 of them (2.4%) count as active. 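Higher z means weaker E2 silencing; only reporter increases were scored, and knock-downs that hurt cell survival may mask genuine repressor factors.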 A number with no mark means an inactive call. Reagents against one gene are numbered here. No sequences are given here.

OR6C74 scored mean z-score -0.14; z-score, replicate A = -0.46; z-score, replicate B = 0.6; z-score, replicate C = -0.55.
After knock-down of TUBB4B, the record shows mean z-score -0.06; z-score, replicate A = 0.05; z-score, replicate B = -0.04; z-score, replicate C = -0.2.
Depletion of PTCHD1 came out at: mean z-score -1.25; z-score, replicate A = -1.63; z-score, replicate B = -1.13; z-score, replicate C = -0.99.
IL12RB2 gave mean z-score 0.16; z-score, replicate A = 0.31; z-score, replicate B = 0.15; z-score, replicate C = 0.04.

No new results follow: an excerpt of the list.
TUBB4B → mean z-score = -0.06; z-score, replicate A = 0.05; z-score, replicate B = -0.04; z-score, replicate C = -0.2
PTCHD1 → mean z-score = -1.25; z-score, replicate A = -1.63; z-score, replicate B = -1.13; z-score, replicate C = -0.99

Continued:
HSPA14 scored mean z-score -0.06; z-score, replicate A = -0.38; z-score, replicate B = 0.21; z-score, replicate C = -0.02.
INCA1 gave mean z-score 0.49; z-score, replicate A = 0.76; z-score, replicate B = 0.56; z-score, replicate C = 0.16.
With knock-down of NEBL #1, the record shows mean z-score 0.38; z-score, replicate A = 0.25; z-score, replicate B = 0.45; z-score, replicate C = 0.45.
Silencing of NEBL #2 came out at: mean z-score -1.03; z-score, replicate A = -1.17; z-score, replicate B = -1.02; z-score, replicate C = -0.91.
Depletion of TRPM3 gave: mean z-score -1.29; z-score, replicate A = -0.97; z-score, replicate B = -1.49; z-score, replicate C = -1.43.
With knock-down of YBEY, the screen gave mean z-score -0.31; z-score, replicate A = -0.08; z-score, replicate B = -0.28; z-score, replicate C = -0.56.
After knock-down of IFNA10, the record shows mean z-score 0.07; z-score, replicate A = 0.24; z-score, replicate B = -0.13; z-score, replicate C = 0.09.
Against GOLM2 the deposit lists mean z-score -1.53; z-score, replicate A = -1.8; z-score, replicate B = -1.27; z-score, replicate C = -1.53.
